Target: His6-SUMO-NOT7 (human, UniProt Q9UIV1 1-285)
Test: ITC

| Binder | fold weaker binding than wild-type PieF | fold decreased affinity against wild-type PieF |
| --- | --- | --- |
| His6-tagged PieF^K124A (natural protein) MKRLIICNGNKLTVCTQAISSGGIVEKYTPIFSLTKESDNELTLELSGVARGYYIIPSELTSSQARAAHLITLLTRAEESQTTDMHKILNSFVSGKITSGSMFNFENDGSFKREPEEAYNLINAI | ~23 fold |  |
| His6-tagged PieF 2M (natural protein) MKRLIICNGNKLTVCTQAISSGGIVEKYTPIFSLTKESDNELTLELSGVARGYYIIPSELTSSQARAAHLITLLTRAEESQTTDMHKILNSFVSGKITSGSMFNFENDGSFKREPERAYNEINKI | ~18 fold |  |
| His6-tagged PieF^K124R (natural protein) MKRLIICNGNKLTVCTQAISSGGIVEKYTPIFSLTKESDNELTLELSGVARGYYIIPSELTSSQARAAHLITLLTRAEESQTTDMHKILNSFVSGKITSGSMFNFENDGSFKREPEEAYNLINRI |  | ~4 fold |

— publication PMC12255788, “Intracellular pathogen effector reprograms host gene expression by inhibiting mRNA decay” (Nature Communications, 2025)
